From patent US20010018065A1, “Compounds and methods for the treatment of bacterial dysentery using antibiotics and toxin binding oligosaccharide compositions” (priority 1998, published 2001) come the findings set out here.

Each structure is given as a SMILES string. In brackets after ≈: the same amount, converted by molar mass.

This assay concerns E. coli O157:H7 (EEU 396). Briefly: Minimum inhibitory concentration (NCCLS M7-A2) for E. coli O157:H7. In kind it is cell-based. Conditions: E. coli O157:H7 (EEU396); for MIC: Escherichia coli.

The term MIC denotes the least concentration at which growth counts as inhibited. Read a low MIC as inhibition by little substance. Take `C=CC1=C(C(=O)O)N2C(=O)[C@@H](NC(=O)/C(=N\OCC(=O)O)c3csc(N)n3)[C@H]2SC1` [Cefixime]: inhibition of growth (MIC) required 4.8 µg/mL (≈ 10.6 µM).

In turn, `O=C(O)c1cn(C2CC2)c2cc(N3CCNCC3)c(F)cc2c1=O` [Ciprofloxacin] came in with a minimal inhibitory concentration (MIC) of 0.192 µg/mL (≈ 0.579 µM).

With `CO[C@@]12[C@H](COC(N)=O)C3=C(C(=O)C(C)=C(N)C3=O)N1C[C@@H]1N[C@@H]12` [Mitomycin-C], the “Minimum Inhibitory Concentration” value was determined as 9.6 µg/mL. As to `CN(C)[C@@H]1C(O)=C(C(N)=O)C(=O)[C@@]2(O)C(O)=C3C(=O)c4c(O)cccc4[C@@](C)(O)[C@H]3C[C@@H]12` [Tetracycline], the minimal inhibitory concentration (MIC) was 1.92 µg/mL (≈ 4.32 µM).
